Anti-infective test results gathered from many reports (values: NIAID ChemDB through PubChem).

Common to all: tests on isolated targets; species: Pneumocystis carinii; target: DHFR; measure: IC50

ICn: concentration for n% inhibition. Lines come from different laboratories, so protocols vary.

SMILES | value
O=C(O)c1cc(Sc2ccc(O)c(C(=O)O)c2)ccc1O | >100 µM
CN(C)C(=O)c1cccc(COc2ccc(N3C(N)=NC(N)=NC3(C)C)cc2Cl)c1 | 0.021 µM
COc1cc(Cc2cnc(N)nc2N)cc(OC)c1SC | 19 µM
CN(Cc1cnc2nc(N)nc(N)c2n1)c1ccccc1 | 10 µM
COc1cc(OC)c(-c2nc3nc(N)nc(N)c3[nH]2)cc1OC | >22 µM
Nc1nc(N)c2nc(CNc3ccccc3)cnc2n1 | >1.9 µM
O=C1C=CC(=Nc2cc(Cl)c(O)c(Cl)c2)C=C1Cl | 226 µM
Nc1nc(N)c2nc(CN(CCO)c3ccc(C(=O)NC(CCC(=O)O)C(=O)O)cc3)cnc2n1 | 0.00035 µM
CCOc1cc(Cc2cnc(N)nc2N)cc(OCC)c1-n1cccc1 | 2.4 µM
Nc1nc(N)c2cc(CN3c4ccccc4C=Cc4ccccc43)cnc2n1 | 0.043 µM
COc1cc(Cc2cnc(N)nc2N)cc(OC)c1-n1cccc1 | 29 µM
COc1cc(CCN2CCc3nc(N)nc(N)c3C2)cc(OC)c1OC | 30 µM
COc1cc(Cc2cnc(N)nc2N)cc(OC)c1NC(=O)CC(=O)O | 100 µM
Nc1nc(N)c(-c2ccc(Cl)c(Cl)c2)c(COc2ccccc2)n1 | 13.5 µM
Nc1nc(N)c2[nH]c(-c3c(Cl)cccc3Cl)nc2n1 | >11 µM
O=C(O)c1cc2ccccc2c(Cc2c(O)c(C(=O)O)cc3ccccc23)c1O | 172 µM
CN(CC1CCc2nc(N)nc(N)c2C1)c1cccc2ccccc12 | 100 µM
CCc1nc(NS(C)(=O)=O)nc(NS(C)(=O)=O)c1-c1ccc(Cl)cc1 | 1.4 µM
COc1cc(Cc2cnc(N)nc2N)c2c(c1OC)OC=CC2 | 11.5 µM
COc1ccc2nc(NC(=O)Nc3ccc(Cl)c(Cl)c3)sc2c1 | >100 µM
COc1ccc(OC)c(CN2CCc3nc(N)nc(N)c3C2)c1 | 3.3 µM
C=COc1c(C=C)cc(Cc2cnc(N)nc2N)cc1C=C | 3.4 µM
Nc1nc(N)c2cc(NC3c4ccccc4C=Cc4ccccc43)ccc2n1 | 13 µM
Nc1nc(N)c2nc(COc3ccccc3)cnc2n1 | 136 µM
CCOC(=O)c1c(OCC)cc(Cc2cnc(N)nc2N)cc1OCC | 8.3 µM
c1ccc(Oc2nc(Oc3ccccc3)nc(Oc3ccccc3)n2)cc1 | 130 µM
CN(Cc1cnc2nc(N)nc(N)c2n1)c1c(Cl)cc(C(=O)N[C@@H](CCC(=O)O)C(=O)O)cc1Cl | 0.000035 µM
O=C(O)c1c(Cl)c(Cl)c(Cl)c(Cl)c1C(=O)N(c1ccccc1)c1ccco1 | >100 µM
Nc1nc(N)c2[nH]c(-c3ccncc3)nc2n1 | >18 µM
CN(Cc1cnc2nc(N)nc(N)c2n1)c1ccc(C(=O)N[C@@H](CCC(=O)N[C@@H](CCC(=O)N[C@@H](CCC(=O)N[C@@H](CCC(=O)O)C(=O)O)C(=O)O)C(=O)O)C(=O)O)cc1 | 0.000035 µM
Nc1ncc(Cc2cc(Cl)c(-n3cccc3)c(Cl)c2)c(N)n1 | 10.9 µM

For reference, 4 entries again:

| SMILES | value |
|---|---|
| COc1cc(Cc2cnc(N)nc2N)cc(OC)c1-n1cccc1 | 29 µM |
| Nc1nc(N)c2[nH]c(-c3ccncc3)nc2n1 | >18 µM |
| CN(Cc1cnc2nc(N)nc(N)c2n1)c1ccccc1 | 10 µM |
| C=COc1c(C=C)cc(Cc2cnc(N)nc2N)cc1C=C | 3.4 µM |